The record followed here is publication PMC2902600.

A word on the stoichiometry N: it is a count of units in the complex or per binding partner.

The target of this assay is HIV-1 MA protein (HIV-1). The assay is described as follows: SAXS.

On to “Xenopus laevis calmodulin (from UniProt P0DP33 2-149) (natural protein)”, for which the stoichiometry N worked out at 1.
